{"source": "patent US7927820B2", "about": "(priority 2004, dated 2011)", "biological_target": "N-type calcium channels in cell membranes isolated from rat brain (Rattus norvegicus, UniProt Q02294)", "format": "binding", "details": "read-out: Affinity constant (Ki); pH 7.4", "data": [{"substance": "ω-conotoxin GVIA", "values": [{"measurement": "Ki", "value": 0.00829, "unit": "nM"}]}, {"substance": "ω-conotoxin MVIIC", "values": [{"measurement": "Ki", "value": 3.97, "unit": "nM"}]}]}
